Results deposited as PubChem BioAssay AID504761 (Drosophila RNAi Screening Center, 2011)
Purpose: 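Fly genes whose silencing reduces dengue virus type 2 infection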 (primary screen). Cell system: D.Mel-2 cells from Drosophila. Reagents: long dsRNA against Drosophila genes. Treatment: infection with dengue virus type 2; dose and infection time not stated. Read-out: 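Cells stained for dengue envelope protein and imaged; percent of infected cells per well on duplicate plates, ranked by infection, with stained nuclei counted for cell number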. Direction: infection score: higher = more virus-infected cells; cell count: higher = more cells in the well. Hit rule: 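Low infection ranks in the two replicates (chance level up to 0.065) followed by a retest with a 1.5-fold or larger significant decrease, p below 0.05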. Calls: active = confirmed: knock-down lowers infection; inactive = not picked or not confirmed.
The screen tested about 22,000 reagents; this is a random part of those that have a named target and a result. In the full data, 116 (0.52%) are marked active. 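Calls depend on retest data that are not deposited; infection was ranked per plate without normalising between plates; the unit of the infection score is not given.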 Raw values vary from plate to plate and are shown uncorrected. Unmarked entries are inactive. The numbers tell different reagents against one gene apart. No sequences are given here. The record does not give: the amount of reagent, the time to read-out.

Pfas (GeneID 33847) | infection score, replicate 1: 6.44; infection score, replicate 2: 5.37; cell count, replicate 1: 6305; cell count, replicate 2: 6644
TwdlR (GeneID 318586) | cell count, replicate 1: 346; cell count, replicate 2: 408
ry (GeneID 41605) #1 | infection score, replicate 1: 18.1; infection score, replicate 2: 27.6; cell count, replicate 1: 5923; cell count, replicate 2: 5899
ry (GeneID 41605) #2 | infection score, replicate 1: 16.3; infection score, replicate 2: 13.9; cell count, replicate 1: 5117; cell count, replicate 2: 6937
Naa15-16 (GeneID 32934) #1 | infection score, replicate 1: 1.58; infection score, replicate 2: 2.54; cell count, replicate 1: 6503; cell count, replicate 2: 6020
Naa15-16 (GeneID 32934) #2 | infection score, replicate 1: 0.86; infection score, replicate 2: 3.64; cell count, replicate 1: 5951; cell count, replicate 2: 6349
CG13751 (GeneID 35879) | infection score, replicate 1: 21.5; infection score, replicate 2: 19.8; cell count, replicate 1: 6231; cell count, replicate 2: 4030
CG11327 (GeneID 33940) | infection score, replicate 1: 2.49; infection score, replicate 2: 2.01; cell count, replicate 1: 6394; cell count, replicate 2: 6428
CG34109 (GeneID 4379890) #1 | infection score, replicate 1: 2.93; infection score, replicate 2: 0.8; cell count, replicate 1: 6898; cell count, replicate 2: 6391
CG34109 (GeneID 4379890) #2 | infection score, replicate 1: 2.71; infection score, replicate 2: 3.19; cell count, replicate 1: 6826; cell count, replicate 2: 6699
CG34109 (GeneID 4379890) #3 | infection score, replicate 1: 2.9; infection score, replicate 2: 2.29; cell count, replicate 1: 6579; cell count, replicate 2: 6510
CG34109 (GeneID 4379890) #4 | infection score, replicate 1: 11.1; infection score, replicate 2: 20.4; cell count, replicate 1: 6521; cell count, replicate 2: 6371
CG34109 (GeneID 4379890) #5 | infection score, replicate 1: 2.57; infection score, replicate 2: 7.26; cell count, replicate 1: 6879; cell count, replicate 2: 5908
Cln3 (GeneID 39981) #1 | infection score, replicate 1: 2.38; infection score, replicate 2: 3.77; cell count, replicate 1: 6640; cell count, replicate 2: 6764
Cln3 (GeneID 39981) #2 | infection score, replicate 1: 2.11; infection score, replicate 2: 5.73; cell count, replicate 1: 6387; cell count, replicate 2: 6390
CG17304 (retired record) (GeneID 41796) #1 | infection score, replicate 1: 2.49; infection score, replicate 2: 3.62; cell count, replicate 1: 6832; cell count, replicate 2: 7077
CG17304 (retired record) (GeneID 41796) #2 | infection score, replicate 1: 8.54; infection score, replicate 2: 12.6; cell count, replicate 1: 3277; cell count, replicate 2: 3960
CG33262 (GeneID 2768975) | infection score, replicate 1: 1.69; infection score, replicate 2: 4.82; cell count, replicate 1: 5908; cell count, replicate 2: 5726
PGS1 (GeneID 42254) | infection score, replicate 1: 0.94; infection score, replicate 2: 0.75; cell count, replicate 1: 5964; cell count, replicate 2: 6390
pie (GeneID 44315) | infection score, replicate 1: 9.15; infection score, replicate 2: 21.8; cell count, replicate 1: 6328; cell count, replicate 2: 5871
CG4291 (GeneID 33264) #1 | infection score, replicate 1: 3.84; infection score, replicate 2: 3.84; cell count, replicate 1: 6534; cell count, replicate 2: 6608
CG4291 (GeneID 33264) #2 | infection score, replicate 2: 6.26; cell count, replicate 1: 358; cell count, replicate 2: 975

Not a retest: an excerpt of the list.
TwdlR (GeneID 318586) | cell count, replicate 1: 346; cell count, replicate 2: 408
ry (GeneID 41605) #1 | infection score, replicate 1: 18.1; infection score, replicate 2: 27.6; cell count, replicate 1: 5923; cell count, replicate 2: 5899
